This note sets out measurements from article PMC8539640, “Unraveling Protein Interactions between the Temperate Virus Bam35 and Its Bacillus Host Using an Integrative Yeast Two Hybrid–High Throughput Sequencing Approach” (2021).

Test [1] addresses Bam35 P15 (special vertex, suggested), bait pBN_15 (Bacillus virus Bam35).
Test [2] deals with Bam35 P19 (DNA packaging, suggested), bait pBN_19 (Bacillus virus Bam35).
Test [3] concerns the target Bam35 P16 (DNA packaging, suggested), bait pBN_16 (Bacillus virus Bam35).
Test [4] has as its target Bam35 P27 (unknown function), bait pBN_27 (Bacillus virus Bam35).

In the case of “B. thuringiensis HER1410 enterotoxin/SH3 domain protein (Iap), full length, prey pPC_iap(27190)”, the Max. 3AT (mM) (B35ORF BtORF) in test [1] was 25 mM; in test [2], 50 mM; in test [3], 25 mM; in test [4], 50 mM.
